Protein sequences, listed by entry. Tags and fused reporters are not part of them. Lines headed by an entry give the natural chain unless they say otherwise; changes in a name come on top. Chains listed by the source or under a name are the forms on record and can include a tag or linker. Residues count along the entry.
UniProt O92972, 2420-2989 with tags or gaps, stated change not applied: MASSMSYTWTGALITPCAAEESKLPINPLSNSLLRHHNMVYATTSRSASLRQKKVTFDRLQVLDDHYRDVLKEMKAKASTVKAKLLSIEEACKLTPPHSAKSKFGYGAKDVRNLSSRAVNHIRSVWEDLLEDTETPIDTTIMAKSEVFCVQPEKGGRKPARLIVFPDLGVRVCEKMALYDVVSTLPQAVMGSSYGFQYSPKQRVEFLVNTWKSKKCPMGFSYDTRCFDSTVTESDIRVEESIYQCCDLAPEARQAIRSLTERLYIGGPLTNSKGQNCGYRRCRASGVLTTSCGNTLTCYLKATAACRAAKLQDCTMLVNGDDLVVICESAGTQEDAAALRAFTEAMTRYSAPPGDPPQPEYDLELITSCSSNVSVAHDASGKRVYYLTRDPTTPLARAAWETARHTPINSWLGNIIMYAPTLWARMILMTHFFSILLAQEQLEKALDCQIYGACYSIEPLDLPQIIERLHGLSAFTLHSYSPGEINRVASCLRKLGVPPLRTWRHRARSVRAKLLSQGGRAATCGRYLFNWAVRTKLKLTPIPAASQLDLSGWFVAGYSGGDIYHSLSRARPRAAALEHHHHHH

In patent publication US20090221559A1 (priority 2005, published 2009):

What was measured:
[1] = target: HCV NS5B polymerase (His-tagged, C-terminal 21 amino acid deleted NS5B, HC-J4) (Hepatitis C virus genotype 1b, UniProt O92972); assay: NS5b polymerase assay (biochemical RdRp assay, 3H-GTP incorporation, SPA beads); design: species or system HCV genotype 1b; conditions: read-out: NS5B Polymerase Assay IC50
[2] = tested on: HCV replicon RNA replication in Huh-7 luc/neo (Huh-Luc) cells; assay: HCV replicon assay (stable replicon cell reporter assay, luciferase read-out); type: cell-based, HCV type 1b; conditions: incubation of three days, luciferase activity

## CC1(C)CC(=O)C2=C(C1)Nc1cccc(Br)c1NC2c1ccc(Cl)cc1Cl (stereo not shown)
[1]
  IC50: 25.6 µM
[2]
  EC50: 5.17 µM

## CC1(C)CC(=O)C2=C(C1)Nc1cc(C#N)ccc1NC2c1ccc(Cl)cc1Cl (stereo not shown)
[1]
  IC50: 9.35 µM
[2]
  EC50: 17 µM
